Data as given in PubChem BioAssay AID504761 (Drosophila RNAi Screening Center, 2011).

Purpose: 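Fly genes whose silencing reduces dengue virus type 2 infection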 (primary screen)
System: D.Mel-2 cells from Drosophila
Knock-down reagent: long dsRNA against Drosophila genes
Treatment: infection with dengue virus type 2; dose and infection time not stated
Read-out: 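Per well on two replicate plates, imaging gave the percent of cells positive for viral envelope protein, ranked by infection, and a nuclear count of cells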
Direction: infection score: higher = more virus-infected cells; cell count: higher = more cells in the well
Call rule: 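Very low infection ranking in both replicate wells (chance probability at most 0.065), then a retest showing infection dropped 1.5-fold or more at p below 0.05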
Calls: active = confirmed: knock-down lowers infection; inactive = not picked or not confirmed
The deposit covers about 22,000 reagents; shown is a random part of those with a known target gene and a result. In the full data, 116 (0.52%) are marked active. 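Calls depend on retest data that are not deposited; infection was ranked per plate without normalising between plates; the unit of the infection score is not given.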 Raw values vary from plate to plate and are shown uncorrected. The numbers tell different reagents against one gene apart. Names joined by + are all predicted targets of the reagent. Not stated in the record: the amount of reagent, the time to read-out.

no.	gene	reagent	infection score, replicate 1	infection score, replicate 2	cell count, replicate 1	cell count, replicate 2	Outcome
1	a	1	4.51	12.9	6828	6888	inactive
2	a	2	7.59	11.4	6533	6887	inactive
3	CG1317	1	10.9	12.5	7032	6027	inactive
4	RpL8	1	4.81	4.47	1995	1499	inactive
5	RpL8	2	3.42	5.24	2048	1298	inactive
6	RpL8	3	15.2	8.92	1947	2343	inactive
7	Obp47a	1	3.38	18.1	6959	5623	inactive
8	Obp47a	2	7.78	1.47	6397	5923	inactive
9	CG10984	1	13.5	10.1	5915	5344	inactive
10	CG10984	2			348	432	inactive
11	Scp1	1	1.38	3.55	6651	6445	inactive
12	Scp1	2	3.74	7.69	6598	6739	inactive
13	Scp1	3	3.65	1.78	6468	6108	inactive
14	CG33144	1	7.8	14.7	6849	6914	inactive
15	CG33144	2	2.74	3.3	6706	6510	inactive
16	ClpX	1	8.64	7.94	6055	6861	inactive
17	CadN2 + CG42830	1	0.97	1.26	5959	6103	inactive
18	CadN2 + CG42830	2	2.76	1.71	5910	6613	inactive
19	CadN2 + CG42830	3	11.4	0.73	4801	6974	inactive
20	Rbm13	1	3	4.36	3336	3857	inactive
21	Rbm13	2	5.09	5.16	2905	1859	inactive
22	CG14062	1	10.7	3.65	6093	6440	inactive
23	CG14062	2	4.31	13.8	6364	6647	inactive
24	CG33128	1	1.11	2.33	5841	6486	inactive
25	CG33128	2	14.9	8.89	4192	3115	inactive
26	RabGGTa	1	6.68	16.3	6574	6170	inactive
27	ATPsyndelta	1	21.1	17.6	3957	4085	inactive
28	GABA-B-R1	1	4.5	5.17	5845	6242	inactive
29	CG32132 (retired record)	1	0.96	11.4	6166	6550	inactive
30	Ace	1	5.9	13.2	5920	5860	inactive
31	Ace	2	16.1	32.3	3715	3577	inactive
32	Polr3B	1	3.77	7.69	4848	5242	inactive
33	Sry-delta	1	3.29	1.24	5813	6426	inactive
34	CG8353	1	8.34	20.2	4942	4713	inactive
35	CG8353	2	9.17	4.28	6186	6302	inactive
36	CG14253	1		4.25	249	6874	inactive
37	CG4480	1	5.61	12.6	6402	3834	inactive
38	GMF	1	29.4	16.2	5879	5890	inactive
39	Jon65Aiv	1	3.82	21.3	6129	5402	inactive
40	Jon65Aiv	2	15.6	2.89	5814	5919	inactive
41	Stat92E	1	2.89	4.79	6372	6162	inactive
42	CG31360	1	7.22	6.19	5764	4714	inactive
43	CG17221	1	2.43	25.6	6245	6056	inactive
44	CG17221	2	7.17	29.6	6245	6781	inactive
45	CG14245	1	10.9		3196	298	inactive
46	Trpm	1	5.58	9.65	5855	6080	inactive
47	Trpm	2	0.84	1.37	5818	7007	inactive
48	Trpm	3	2.84	27.2	6027	5162	inactive
49	Trpm	4	11.6		748	275	inactive
50	Cow	1	4.81	1.45	6573	6492	inactive
51	Cow	2	7.82	4.17	6532	5346	inactive
52	Cow	3	51.5	9.53	4973	6173	inactive
53	CG6356	1	3.24	2.83	6199	6572	inactive
54	TkR99D	1	3.84	10.4	6460	5668	inactive
55	Prx2	1	3.88	2.06	6554	6200	inactive
56	Prx2	2	13.5	6.15	6199	6148	inactive
57	CG40298	1	6.26	7.72	6089	6202	inactive
58	CG13121 (retired record)	1	2.85	1.94	6279	6497	inactive
59	CG2070	1	2.84	12	739	6872	inactive
60	CG32485	1	5.31	16.5	6912	5931	inactive
61	Ldsdh1	1	2.24	3.44	6459	6288	inactive
62	Ldsdh1	2	3.38	5.73	5951	6091	inactive
63	corolla	1	27.1	7	3522	6825	inactive
64	CG14913	1	3.69	3.62	6496	6760	inactive
65	CG14913	2	23.5	12.7	5350	5360	inactive
66	CG33966	1	3.16	0.42	5863	6235	inactive
67	CG33966	2	19.7	17.6	6054	6011	inactive
68	Vps28	1	3.14	13.7	3884	4715	inactive
69	mtTFB1 + Ccdc56	1	1.69	7.32	6787	7390	inactive
70	CG31343	1	1.68	2.29	6845	6372	inactive
71	Fign	1	3.35	1.49	6515	6712	inactive
72	Ibf1	1	5.53	7.36	6635	6645	inactive
73	Klp10A	1	5.52	5.24	1231	6237	inactive
74	Klp10A	2	2.01	3.64	6128	6242	inactive
